{"source": "paper PMC9774897", "about": "(Antibiotics, 2022)", "key": {"[1]": {"system": "RF-monoresistant M. tuberculosis"}, "[2]": {"system": "RF-monoresistant M. tuberculosis", "remark": "listed apart in the source"}, "[3]": {"system": "INH-monoresistant M. tuberculosis"}, "[4]": {"system": "INH-monoresistant M. tuberculosis", "remark": "listed apart in the source"}}, "note": "Non-standard residues stand in square brackets, D forms with d. Residues, ends and D or L forms follow the SMILES beside them.", "data": [{"compound": "CC(C)[C@@H](NC(=O)[C@@H](CO)NC(=O)[C@@H](CCCNC(=N)N)NC(=O)[C@@H](CCCNC(=N)N)NC(=O)[C@@H](CCCNC(=N)N)NC(=O)[C@@H](CCCNC(=N)N)NC(=O)CN)C(=O)N[C@H](CCC(N)=O)C(=O)N[C@H](Cc1c[nH]c2ccccc12)C(=O)N[C@H](CS)C(=O)N[C@H](C)C(=O)O", "note": "[D-hLF 1-11] (H-G[dR][dR][dR][dR][dS][dV][dQ][dW][dC][dA]-OH; N-terminus and C-terminus assumed)", "values": [{"measurement": "MIC, REMA", "setting": "[1]", "value": 100, "unit": "µg/mL"}, {"measurement": "MIC, MODS Assay", "setting": "[2]", "value": 200, "unit": "µg/mL"}, {"measurement": "MIC, MODS Assay", "setting": "[3]", "value": 200, "unit": "µg/mL"}, {"measurement": "MIC, REMA", "setting": "[4]", "value": 100, "unit": "µg/mL"}]}]}
